Anti-infective test results gathered from many reports (values: NIAID ChemDB through PubChem).

Shared fields: whole-cell or culture tests; organism: Candida albicans; read-out: MIC

Conditions beyond the fields shown may differ between rows. a–b is a range or a potency band. Blank or dashed fields: not listed here.

structure | strain | method | conditions | result
O=C1N(c2ccccc2)C(c2ccc(Cl)cc2)C1(Cl)Cl | ATCC 10231 |  |  | 125 µg/mL
NC(=S)c1ccnc(SC2CCCCC2)c1 | 176 |  |  | 100 µg/mL
CCC(=O)/C=C1\Sc2ccccc2N1/C1=C/CCCCCCCCCC1 | ATCC 10231 |  |  | ≥100 µg/mL
O=C1N(c2ccc(Cl)cc2)C(c2ccccc2)C1(Cl)Cl | ATCC 10231 |  |  | 125 µg/mL
Cc1ccc(/C(Cn2cncn2)=N/N=C(\N)c2ccccn2)cc1 | Isolate 685 |  |  | 64 µg/mL
C[C@H](n1nnnc1CCN1CCN(c2cccc(Cl)c2)CC1)[C@](O)(Cn1cncn1)c1ccc(F)cc1F | V-01-191A-261 (resistant) |  |  | 4 µg/mL
CCC(C)CC(C)CCCCCCCCC(=O)N[C@H]1C[C@@H](O)[C@@H](OCCN)NC(=O)[C@@H]2C[C@@H](O)CN2C(=O)[C@H]([C@H](O)CC(N)=O)NC(=O)[C@H]([C@H](O)[C@@H](O)c2ccc(O)cc2)NC(=O)[C@@H]2C[C@@H](O)CN2C(=O)[C@H]([C@@H](C)O)NC1=O | 40 isolates |  |  | 8–32 µg/mL
COc1cc(C2C(C#N)=C(N)OC3=C2CSc2ccccc23)ccc1O |  |  |  | 25 µg/mL
COc1cc(OC/C(=N/O)c2ccccc2)cc(OC)c1OC | ATCC 10231 | broth dilution | 48 h | >125 µg/mL
COc1c(CN(C)C)cccc1C1OC(c2ccncc2)=NN1C(C)=Nc1ccccc1 | MTCC 227 |  |  | 12.5 µg/mL
Clc1ccc(C(Cc2c(Cl)cccc2Cl)Cn2ccnc2)c(Cl)c1 |  |  |  | 100 µg/mL
C[C@H](n1nnnc1CCN1CCN(c2ccc([N+](=O)[O-])cc2)CC1)[C@](O)(Cn1cncn1)c1ccc(F)cc1F |  |  |  | 2 µg/mL
O=C(COc1cccc(F)c1)c1ccccc1 | ATCC 10231 | broth dilution | 48 h | >125 µg/mL
CCCSc1ccc2nc(NC(=O)OC)[nH]c2c1 | R-1590 |  | 24 h | 10 µg/mL
COc1ccc(-c2nnc(Nc3nc(O)c(C4=c5cc(F)ccc5=NC4=O)s3)o2)cc1 | ATCC 10231 |  |  | 16 µg/mL
COc1ccccc1-c1c(C#N)c(OC)nc2c1CSc1ccccc1-2 |  |  |  | 25 µg/mL
CSc1cc(C(N)=S)ccn1 | 3a |  |  | 200 µg/mL
Clc1ccc(C(Cc2ccccc2Cl)Cn2ccnc2)c(Cl)c1 |  |  |  | 100 µg/mL
C[C@H](n1ccnn1)[C@@](O)(Cn1cncn1)c1ccccc1F | TA |  |  | >100 µg/mL
COc1ccc2c(c1)C1=C(CS2)C(c2ccc3c(c2)OCO3)C(C#N)=C(N)O1 |  |  |  | 6 µg/mL
C=C1C(=O)OCC1COC(=O)CCCCC | A9540 |  |  | 50 µg/mL
COc1ccc(NC(=O)OCC(O)CN2CCN(c3cccc(F)c3)CC2)cc1 | CCM 8186 |  |  | 780 µg/mL
CCCC(=O)/C=C1\Sc2cc(F)ccc2N1C1=CCCCCC1 | ATCC 10231 |  |  | ≥100 µg/mL
C[C@H](n1nnc(CCN2CCN(c3ccc(F)cc3)CC2)n1)[C@](O)(Cn1cncn1)c1ccc(F)cc1F | V-01-191A-261 (resistant) |  |  | 2 µg/mL
COc1ccccc1OCC(=O)c1ccccc1 | ATCC 10231 | broth dilution | 24 h | >125 µg/mL
Clc1ccc(CC(Cn2ccnc2)c2ccc(Cl)cc2Cl)c(Cl)c1 |  |  |  | 10 µg/mL
O/N=C(/COc1cccc(F)c1)c1ccccc1 | ATCC 10231 | broth dilution | 48 h | >125 µg/mL
Cc1ccc(C2N(c3ccccc3)C(=O)C2(Cl)Cl)cc1 | ATCC 10231 |  |  | 125 µg/mL
CCCCOc1ccc(NC(=O)OCC(O)CN2CCN(c3cccc(F)c3)CC2)cc1 | CCM 8186 |  |  | 200 µg/mL
C[C@@H](n1ccnn1)[C@@](O)(Cn1cncn1)c1ccccc1F | TA |  |  | >100 µg/mL
CCOc1nc2c(c(-c3ccc4ccccc4c3)c1C#N)CSc1ccc(Cl)cc1-2 |  |  |  | 50 µg/mL
Cc1ccc(C2=CC(C)OC2=O)cc1 | ATCC 44859 |  |  | >125 µM
O=C(/C=C/c1ccc(Cl)cc1Cl)c1c[nH]c2ccccc12 | ATCC 90028 | broth dilution |  | 400 µg/mL
CO[C@@H](n1cccn1)[C@](O)(Cn1cccn1)c1ccc(Cl)cc1 |  |  |  | >100 µg/mL
CCC(C)CC(C)CCCCCCCCC(=O)N[C@@H]1C[C@@H](O)[C@@H](O)NC(=O)[C@@H]2[C@@H](O)CCN2C(=O)[C@H]([C@@H](O)CCN)NC(=O)[C@H]([C@H](O)[C@@H](O)c2ccc(O)cc2)NC(=O)[C@@H]2C[C@@H](O)CN2C(=O)[C@H]([C@H](C)O)NC1=O | 40 isolates |  |  | 0.25 µg/mL
CCC1C=C(c2ccc(Br)cc2)C(=O)O1 | ATCC 44859 |  |  | 62.5 µM
Cc1ccc(N2N=C(c3c[nH]c4ccccc34)CC2c2cccc(Cl)c2Cl)cc1 | ATCC 90028 | broth dilution |  | 400 µg/mL
CCCCOc1ccccc1N1CCN(CCc2nnn(C(C)C(O)(Cn3cncn3)c3ccc(F)cc3F)n2)CC1 |  |  |  | 0.5 µg/mL
O=C(/C=C/c1cccc(Cl)c1Cl)c1c[nH]c2ccccc12 | ATCC 90028 | broth dilution |  | 200 µg/mL
C[C@H]1[C@H](O)[C@@H](C)/C=C/C=C/C=C/C=C/C=C/C=C/C=C/[C@H](O[C@@H]2O[C@H](C)[C@@H](O)[C@H](N)[C@@H]2O)C[C@@H]2O[C@](O)(C[C@@H](O)C[C@@H](O)CC[C@H](O)[C@@H](O)C[C@@H](O)CC(=O)O[C@H]1C)C[C@H](O)[C@H]2C(=O)O | SC14061 (azole-resistant) |  |  | 0.13 µg/mL
CS[C@@H](n1cncn1)[C@@](O)(Cn1cncn1)c1ccc(F)cc1F |  |  |  | >100 µg/mL
O/N=C(\COc1ccccc1)c1ccccc1 | ATCC 10231 | broth dilution | 48 h | >125 µg/mL
O=C1N=c2ccc(Br)cc2=C1c1sc(Nc2nnc(-c3ccc(Cl)cc3)o2)nc1O | ATCC 10231 |  |  | 16 µg/mL
COc1c(CN(C)C)cccc1C1OC(c2ccncc2)=NN1C(C)=Nc1ccc(F)cc1 | MTCC 227 |  |  | 3.12 µg/mL
C[C@H](n1cnnn1)[C@](O)(Cn1cncn1)c1ccc(F)cc1F | TA |  |  | 100 µg/mL
N/C(=N\N=C(/Cn1ccnc1)c1ccccc1)c1ccccn1 | Isolate 685 |  |  | 2 µg/mL
CCOc1ccc(NC(=O)OCC(O)CN2CCN(c3cccc(F)c3)CC2)cc1 | CCM 8186 |  |  | 780 µg/mL
CO[C@@H](n1cncn1)[C@](O)(Cn1cncn1)c1ccc(Cl)cc1Cl |  |  |  | >100 µg/mL
C[C@H](n1nnnc1CCN1CCN(c2ccccc2)CC1)[C@](O)(Cn1cncn1)c1ccc(F)cc1F |  |  |  | 8 µg/mL
Clc1ccc(C(Cc2ccc(Cl)cc2Cl)Cn2ccnc2)cc1 |  |  |  | 100 µg/mL
Cc1c(Sc2ccccc2)[n+](=O)c2cc(Cl)ccc2n1[O-] | Clinical isolate 2 |  |  | 62.5 µg/mL
Cc1ccc(/C(Cn2ccnc2)=N/N=C(\N)c2ccccn2)cc1 | Isolate 685 |  |  | 0.5 µg/mL
Cc1ccc(N2N=C(c3c[nH]c4ccccc34)CC2c2ccc(Cl)c(Cl)c2)cc1 | ATCC 90028 | broth dilution |  | 200 µg/mL
CO[C@@H](n1cccn1)[C@](O)(Cn1ccnc1)c1ccc(F)cc1 |  |  |  | >100 µg/mL
Cc1c(S(=O)(=O)c2ccccc2)[n+](=O)c2cc(Cl)ccc2n1[O-] | Clinical isolate 12 |  |  | 31.25 µg/mL
Clc1ccc(CC(Cn2ccnc2)c2ccccc2Br)cc1 |  |  |  | 10 µg/mL
O=C1N(c2ccccc2)C(c2ccc([N+](=O)[O-])cc2)C1(Cl)Cl | ATCC 10231 |  |  | 125 µg/mL
CCOc1cc2c(cc1F)n([O-])c(C)c(S(=O)(=O)c1ccccc1)[n+]2=O | Clinical isolate 2 |  |  | 15.6 µg/mL
Cc1ccc2c(c1)=C(c1sc(Nc3nnc(-c4ccccc4)o3)nc1O)C(=O)N=2 | ATCC 10231 |  |  | 16 µg/mL
CN(CCCC#CC(C)(C)C)c1cccc2c1CCC(=O)N2 | Clinical isolate 15 |  |  | 62.5 µg/mL
C[C@H](n1ccnn1)[C@@](O)(Cn1cncn1)c1ccc(F)cc1 | TA |  |  | 100 µg/mL
CCCCCCSc1cc(C(N)=S)ccn1 | 3a |  |  | 6.25 µg/mL
O=C1N=c2ccc([N+](=O)[O-])cc2=C1c1sc(Nc2nnc(-c3ccccc3)o2)nc1O | ATCC 10231 |  |  | 16 µg/mL
C[C@H](n1ccnn1)[C@](O)(Cn1cncn1)c1ccc(F)cc1 | TA |  |  | 50 µg/mL
O=C1N=c2ccc(F)cc2=C1c1sc(Nc2nnc(-c3ccccc3)o2)nc1O | ATCC 10231 |  |  | 16 µg/mL
COc1ccc(N2C(=O)C(Cl)(Cl)C2c2ccccc2)cc1 | ATCC 10231 |  |  | 125 µg/mL
O=C1N=c2ccc([N+](=O)[O-])cc2=C1c1sc(Nc2nnc(-c3ccc(Cl)cc3)o2)nc1O | ATCC 10231 |  |  | 16 µg/mL
CO[C@@H](n1cncn1)[C@@](O)(Cn1cncn1)c1ccccc1F |  |  |  | >100 µg/mL
O=C(COc1ccccc1)c1ccccc1 | ATCC 10231 | broth dilution | 24 h | 125 µg/mL
N/C(=N\N=C(/Cn1ccnc1)c1ccc(Cl)s1)c1ccccn1 | Isolate 685 |  |  | 0.5 µg/mL
CCC(=O)/C=C1\Sc2ccccc2N1C1CCCCCCC1 | ATCC 10231 |  |  | >100 µg/mL
O=C1N=c2ccc(Br)cc2=C1c1sc(Nc2nnc(-c3ccccc3)o2)nc1O | ATCC 10231 |  |  | 16 µg/mL
C[C@H](n1nnc(CCN2CCN(c3ccc([N+](=O)[O-])cc3)CC2)n1)[C@](O)(Cn1cncn1)c1ccc(F)cc1F | V-01-191A-261 (resistant) |  |  | 2 µg/mL
CC(=O)/C=C1\Sc2ccccc2N1C1CCCCCC1 | ATCC 14053 |  |  | 25 µg/mL
C[C@H](n1nnc(CCN2CCN(c3ccccn3)CC2)n1)[C@](O)(Cn1cncn1)c1ccc(F)cc1F |  |  |  | 4 µg/mL
CCCCCCCCSc1cc(C(N)=S)ccn1 | 176 |  |  | 12.5 µg/mL
N/C(=N\N=C(/Cn1cncn1)c1ccccc1)c1ccccn1 | Isolate 685 |  |  | 64 µg/mL
CCCCCCCCOc1ccc(C(=O)NC2C[C@@H](O)[C@@H](O)NC(=O)C3[C@@H](O)[C@@H](C)CN3C(=O)C(C(C)O)NC(=O)C([C@H](O)[C@@H](O)c3ccc(O)cc3)NC(=O)C3C[C@@H](O)CN3C(=O)C(C(C)O)NC2=O)cc1 | Isolate 5 |  |  | 0.6 µg/mL
CC1C=C(c2ccc(Cl)cc2Cl)C(=O)O1 | ATCC 44859 |  |  | >125 µM
N/C(=N\N=C(/Cn1cncn1)c1ccc(Cl)cc1)c1ccccn1 | Isolate 685 |  |  | 2 µg/mL

The last 8 rows once more:

structure,strain,method,conditions,result
C[C@H](n1nnc(CCN2CCN(c3ccc([N+](=O)[O-])cc3)CC2)n1)[C@](O)(Cn1cncn1)c1ccc(F)cc1F,V-01-191A-261 (resistant),,,2 µg/mL
CC(=O)/C=C1\Sc2ccccc2N1C1CCCCCC1,ATCC 14053,,,25 µg/mL
C[C@H](n1nnc(CCN2CCN(c3ccccn3)CC2)n1)[C@](O)(Cn1cncn1)c1ccc(F)cc1F,,,,4 µg/mL
CCCCCCCCSc1cc(C(N)=S)ccn1,176,,,12.5 µg/mL
N/C(=N\N=C(/Cn1cncn1)c1ccccc1)c1ccccn1,Isolate 685,,,64 µg/mL
CCCCCCCCOc1ccc(C(=O)NC2C[C@@H](O)[C@@H](O)NC(=O)C3[C@@H](O)[C@@H](C)CN3C(=O)C(C(C)O)NC(=O)C([C@H](O)[C@@H](O)c3ccc(O)cc3)NC(=O)C3C[C@@H](O)CN3C(=O)C(C(C)O)NC2=O)cc1,Isolate 5,,,0.6 µg/mL
CC1C=C(c2ccc(Cl)cc2Cl)C(=O)O1,ATCC 44859,,,>125 µM
N/C(=N\N=C(/Cn1cncn1)c1ccc(Cl)cc1)c1ccccn1,Isolate 685,,,2 µg/mL